Measurements reported in patent US10004701B2, “Methods and compositions for treating infection” (UNIVERSITY OF ROCHESTER, priority 2012, dated 2018).

What was measured:
Assay in all cases: AK assay 384-well format, Prestwick library screening
K. pneumoniae = format: cell-based, Klebsiella pneumoniae; settings: planktonic K. pneumoniae; 50 μM final drug concentration; cutoff for positive-scoring molecules 3-fold increase
[1] = tested on: A. baumannii strain 98-37-09; format: cell-based, Acinetobacter baumannii; settings: planktonic A. baumannii; 50 μM final drug concentration; cutoff for positive-scoring molecules 3-fold increase
E. faecium = format: cell-based, Enterococcus faecium; settings: planktonic E. faecium; 50 μM final drug concentration; cutoff for positive-scoring molecules 3-fold increase
[2] = tested on: S. aureus strain USA300-0114; format: cell-based, Staphylococcus aureus; settings: planktonic S. aureus; 50 μM final drug concentration; cutoff for positive-scoring molecules 3-fold increase
E. cloacae = format: cell-based, Enterobacter cloacae; settings: planktonic E. cloacae; 50 μM final drug concentration; cutoff for positive-scoring molecules 3-fold increase
P. aeruginosa = format: cell-based, Pseudomonas aeruginosa; settings: planktonic P. aeruginosa; 50 μM final drug concentration; cutoff for positive-scoring molecules 3-fold increase
E. coli = format: cell-based, Escherichia coli; settings: planktonic E. coli; 50 μM final drug concentration; cutoff for positive-scoring molecules 3-fold increase

NC(=O)Nc1ccc([As](=O)(O)O)cc1
AK-based Prestwick Library Screening Results, K. pneumoniae (increase in extracellular AK activity) (K. pneumoniae): 0.5
AK-based Prestwick Library Screening Results, A. baumannii (increase in extracellular AK activity) [1]: 0.6
AK-based Prestwick Library Screening Results, E. faecium (increase in extracellular AK activity) (E. faecium): 1.0
AK-based Prestwick Library Screening Results, S. aureus (increase in extracellular AK activity) [2]: 0.6
AK-based Prestwick Library Screening Results, E. cloacae (increase in extracellular AK activity) (E. cloacae): 0.7
AK-based Prestwick Library Screening Results, P. aeruginosa (increase in extracellular AK activity) (P. aeruginosa): 0.6
AK-based Prestwick Library Screening Results, E. coli (increase in extracellular AK activity) (E. coli): 0.6
